Several values for one entry are separate records, joined by “and”; a condition that tells them apart may be missing. Identical values can stand only once. Some results come without the dose or concentration used.
What follows are molecules tested on poliovirus Sabin strains 1, 2, and 3.
Format: cell-based

Which “TIs” value does the source give for CC(C)S(=O)(=O)n1c(N)nc2ccc(/C(=N/O)c3ccccc3)cc21 [Enviroxime] here?
The value was 290–1,657.

N=c1ccn(Cc2nc3ccccc3n2-c2ccc(F)cc2)cc1 [MRL-1237] was tested. Which “TIs” value did it give?
Its value is over 19.

Which “TIs” value does the source give for NC(=O)c1ncn([C@@H]2O[C@H](CO)[C@@H](O)[C@H]2O)n1 [Ribavirin] here?
Its value is > 1.6 and > 1.8.

For OC(c1ccccc1)c1nc2ccccc2[nH]1 (stereo not drawn) [HBB, 2-(α-hydroxybenzyl)-benzimidazole], which “TIs” value is on record?
Its value is over 1.3.
